Pooled drug test results. Numbers come from NIAID ChemDB, via PubChem.

Shared fields: whole-cell or culture tests; species: Hepatitis C virus; read-out: EC50

ECn: concentration that inhibits the pathogen or its effect by n%. Neighbouring rows are from separate reports. a–b is a range or a potency band. An empty or dashed field is not shown.

SMILES,cells,read by,strain,value
CCNc1cc2oc(-c3ccc(F)cc3)c(C(=O)NC)c2cc1OC(C)C,Huh7,replicon,-,<1 µM
Nc1ccn([C@@H]2C[C@H](CO)[C@@H](O)[C@]2(O)CO)c(=O)n1,Huh7,-,-,11.7 µg/mL
CCn1c(C(=O)O)cc2cc(NC(=O)C3(NC(=O)c4ccc5c(c4)nc(-c4ccoc4)n5C4CCCCC4)CCCC3)ccc21,Huh7,-,-,≤5 µM
CNC(=O)c1c(N(C)S(C)(=O)=O)cc2oc(-c3ccc(F)cc3)c(C(=O)NC)c2c1OC,Huh7,replicon,-,<10 µM
Nc1ncnc2c1c(-c1ccccc1)cn2[C@@H]1O[C@H](CO)[C@@H](O)C1(F)F,HCV replicon,replicon,1b,6.49 µM
COC(=O)NNc1ncnc2c1ncn2[C@@H]1O[C@H](CO)[C@@H](O)[C@@]1(C)O,Huh7,replicon,-,<25 µM
NC(=O)COc1ccc2c(c1)S(=O)(=O)N=C(c1c(O)c3cc(F)ccc3n(CCC3CC3)c1=O)N2,-,replicon,1b 66193,<0.001 µM
CN(C)[C@@H](C(=O)N1CCC[C@H]1c1ncc(-c2ccc(-c3ccc(-c4cnc([C@@H]5CCCN5C(=O)[C@@H](c5ccccc5)N(C)C)[nH]4)cc3C(F)(F)F)cc2)[nH]1)c1ccccc1,-,-,1b,0.00001–0.000999 µM
C[C@@H](NC(=O)NCc1ccccc1)C(=O)Nc1ccc(C2SC(=Nc3cccc(F)c3)N(Cc3ccco3)C2=O)cc1,Huh7,replicon,-,0.1–1 µM
Nc1ncnc2c1c(-c1ccsc1)cn2[C@H]1O[C@H](CO)[C@@H](O)C1(F)F,HCV replicon,replicon,1a,4.71 µM
CC(C)CC[C@@]1(C)C(=O)C(C2=NS(=O)(=O)c3cc(NS(C)(=O)=O)ccc3N2)=C(O)c2ccccc21,Huh7,luciferase,6a,1.388 µM
CNC(=O)c1c(-c2ccc(F)cc2)oc2cc(N(CC(C)C)S(C)(=O)=O)c(O)cc12,Huh7,replicon,-,<30 µM
COC(=O)N[C@H](C(=O)N1CCC[C@@H]1c1ncc(-c2ccc(-c3ccc(-c4cnc([C@@]5(C)CCCN5C(=O)[C@@H](Nc5ncccn5)C(C)C)[nH]4)cc3)cc2)[nH]1)C(C)C,-,-,1b,0.00001–0.000999 µM
O=C(Nc1ccc(C2SC(=Nc3ccc(N4CCOCC4)cc3)N(Cc3ccccn3)C2=O)cc1)[C@H]1CCCN1C(=O)C1(c2ccc(F)cc2)CCCC1,Huh7,replicon,-,0.1–1 µM
Cc1nc(C(=O)O)sc1-c1ccc(NC(=O)C2(NC(=O)c3ccc4c(c3)nc(-c3ccoc3)n4C3CCCCC3)CCCC2)cc1,Huh7,-,-,≤5 µM
C[C@@H](NC(=O)OCc1ccccc1)C(=O)Nc1ccc(C2SC(=Nc3cccc(F)c3)N(CC3CCS(=O)(=O)C3)C2=O)cc1,Huh7,replicon,-,1–5 µM
Nc1ncnc2c1c(-c1cccs1)cn2[C@@H]1O[C@H](CO)[C@@H](O)[C@H]1F,HCV replicon,replicon,1a,2 µM
CCNc1cc2oc(-c3ccc(F)cc3)c(C(=O)NC)c2cc1OCCCBr,Huh7,replicon,-,<1 µM
CCOc1ccccc1Nc1ncnc2c1ncn2[C@@H]1O[C@H](CO)[C@@H](O)[C@@]1(C)O,Huh7,replicon,-,25–100 µM
COC(=O)N[C@@H](C(=O)N1CCC[C@H]1c1ncc(-c2ccc(-c3ccc(-c4cnc([C@@H]5CCCN5C(=O)N5CCOCC5)[nH]4)cn3)cc2)[nH]1)c1ccccc1,-,-,1b,0.00001–0.000999 µM
CC[C@@H](NC(=O)c1ccc2c(c1)nc(-c1ccoc1)n2C1CCCCC1)C(=O)Nc1ccc(/C=C/C(=O)O)cc1,Huh7,-,-,5–50 µM
O=C([C@@H](c1ccccc1)N1CCCCC1)N1CCC[C@@H]1c1ncc(-c2ccc(-c3ncc(-c4cnc([C@H]5CCCN5C(=O)[C@@H](c5cccnc5)N5CCCCC5)[nH]4)cn3)cc2)[nH]1,-,-,1b,0.00001–0.000999 µM
CC(CNc1ncnc2c1ncn2[C@@H]1O[C@H](CO)[C@@H](O)[C@@]1(C)O)c1ccccc1,Huh7,replicon,-,>100 µM
Nc1ncnc2c1c(-c1ccsc1)cn2[C@@H]1O[C@H](CO)[C@@H](O)C1(F)F,HCV replicon,replicon,1b,5.74 µM
CC(C)(C)OC(=O)NOc1ncnc2c1ncn2[C@@H]1O[C@H](CO)[C@@H](O)[C@@]1(C)O,Huh7,replicon,-,<25 µM
COC(=O)N[C@@H](C(=O)N1CCC[C@@H]1C1=NCC(c2ccc(-c3ccc(-c4cnc([C@H]5CCCN5C(=O)[C@H](NC(=O)OC)c5ccccc5)[nH]4)cc3)c(CN(C)C)c2)=N1)c1ccccc1,-,-,1b,0.00001–0.000999 µM
O=C(Nc1ccc(C2SC(=Nc3cccc(Cl)c3)N(Cc3ccco3)C2=O)cc1)[C@H]1CCCN1C(=O)OCc1ccccc1,Huh7,replicon,-,0.1–1 µM
Cc1cccc(Nc2ncnc3c2ncn3[C@@H]2O[C@H](CO)[C@@H](O)[C@@]2(C)O)c1,Huh7,replicon,-,>100 µM
CNC(=O)c1c(-c2ccc(F)cc2)oc2cc(N(CC(C)O)S(C)(=O)=O)c(OC(C)C)cc12,Huh7,replicon,-,<1 µM
C[C@@]1(O)[C@H](O)[C@@H](CO)O[C@H]1n1cnc2c(ONC(=O)OCc3ccccc3)ncnc21,Huh7,replicon,-,<25 µM
Cc1oc(-c2cccc(NC(=O)[C@@H](C)NC(=O)c3ccc4c(c3)nc(-c3ccoc3)n4C3CCCCC3)c2)cc1C(=O)O,Huh7,-,-,≤5 µM
C[C@H](NC(=O)[C@@H](c1ccccc1)N(C)C)c1ncc(-c2cnc(-c3ccc(-c4cnc([C@H]5CCCN5C(=O)[C@@H](c5ccccc5)N(C)C)[nH]4)cc3)nc2)[nH]1,-,-,1b,0.00001–0.000999 µM
CCC[C@H](NC(=O)[C@@H]1C[C@@H](Oc2nc(-c3c(C)cnn3C)nc3ccsc23)CN1C(=O)[C@@H](NC(=O)NC(C)(C)C)C(C)(C)C)C(=O)C(=O)NC1CC1,-,replicon,1b,<1 µM
CN(N)c1ncnc2c1ncn2[C@@H]1O[C@H](CO)[C@@H](O)[C@@]1(C)O,Huh7,replicon,-,<25 µM
CNC(=O)c1c(-c2ccc(F)cc2)oc2cc(N(C)S(C)(=O)=O)c(OCc3cscn3)cc12,Huh7,replicon,-,<1 µM
CC1CCC(C(=O)N(c2cc(-c3ccccc3)sc2C(=O)O)C(C)C)C(O)C1,Huh7,replicon,-,0.2 µM
C[C@@H](NC(=O)OCc1ccccc1)C(=O)Nc1ccc(C2SC(=Nc3ccc(N4CCOCC4)cc3)N(Cc3ccco3)C2=O)cc1,Huh7,replicon,-,<0.1 µM
CNC(=O)c1c(-c2ccc(F)cc2)oc2cc(-c3cncs3)c(OC(C)C)cc12,Huh7,replicon,-,<1 µM
COC(=O)N[C@@H](C(=O)N[C@@H](C)c1ncc(-c2ccc(-c3ccc(-c4cnc([C@@H]5CCCN5C(=O)[C@H](NC(=O)OC)c5ccccc5)[nH]4)cc3)nc2)[nH]1)c1ccccc1,-,-,1b,0.00001–0.000999 µM

5 of the rows above, restated:

COC(=O)NNc1ncnc2c1ncn2[C@@H]1O[C@H](CO)[C@@H](O)[C@@]1(C)O ; cells: Huh7 ; read by: replicon ; value: <25 µM
CC(CNc1ncnc2c1ncn2[C@@H]1O[C@H](CO)[C@@H](O)[C@@]1(C)O)c1ccccc1 ; cells: Huh7 ; read by: replicon ; value: >100 µM
O=C(Nc1ccc(C2SC(=Nc3cccc(Cl)c3)N(Cc3ccco3)C2=O)cc1)[C@H]1CCCN1C(=O)OCc1ccccc1 ; cells: Huh7 ; read by: replicon ; value: 0.1–1 µM
Nc1ncnc2c1c(-c1cccs1)cn2[C@@H]1O[C@H](CO)[C@@H](O)[C@H]1F ; cells: HCV replicon ; read by: replicon ; strain: 1a ; value: 2 µM
CC(C)CC[C@@]1(C)C(=O)C(C2=NS(=O)(=O)c3cc(NS(C)(=O)=O)ccc3N2)=C(O)c2ccccc21 ; cells: Huh7 ; read by: luciferase ; strain: 6a ; value: 1.388 µM